From publication PMC7517352 (Frontiers in Microbiology, 2020) come the findings set out here.

B1: VapB4 antitoxin (Rv0596c) (natural protein)
chain: MSATIPARDLRNHTAEVLRRVAAGEEIEVLKDNRPVARIVPLKRRRQWLPAAEVIGELVRLGPDTTNLGEELRETLTQTTDDVRW
B2: VapB32 antitoxin (Rv1113) (natural protein)
chain: MRTTVTVDDALLAKAAELTGVKEKSTLLREGLQTLVRVESARRLAALGGTDPQATAAPRRRTSPR
B3: VapB26 antitoxin (Rv0581) (natural protein)
chain: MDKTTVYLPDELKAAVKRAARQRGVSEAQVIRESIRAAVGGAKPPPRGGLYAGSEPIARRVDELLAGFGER
B4: VapB21 antitoxin (Rv2758c), individually purified from pET15b (natural protein)
chain: MHRGYALVVCSPGVTRTMIDIDDDLLARAAKELGTTTKKDTVHAALRAALRASAARSLMNRMAENATGTQDEALVNAMWRDGHPENTA
B5: VapB3 antitoxin (Rv0550c) (natural protein)
chain: MLSRRTKTIVVCTLVCMARLNVYVPDELAERARARGLNVSALTQAAISAELENSATDAWLEGLEPRSTGARHDDVLGAIDAARDEFEA
B6: VapC21 toxin (Rv2757c), individually purified from pET15b (enzyme)
chain: MTTRYLLDKSAAYRAHLPAVRHRLEPLMERGLLARCGITDLEFGVSARSREDHRTLGTYRRDALEYVNTPDTVWVRAWEIQEALTDKGFHRSVKIPDLIIAAVAEHHGIPVMHYDQDFERIAAITRQPVEWVVAPGTA

Several values for one entry are separate records, joined by “and”; a condition that tells them apart may be missing. Equal values may be shown once.

The first data set deals with VapC21 toxin (Rv2757c), individually purified from pET15b (M. tuberculosis) (UniProt P9WF91). Description: SEC-MALS. For orientation: SEC sorts molecules by how far they enter the pores of the column.
“C-terminal VapB21 peptide (residues 69–108)” returned a stoichiometry N (antitoxin per toxin (2:2)) of 1.

In the next data set the target is B6. The data set is described as follows: SPR.
B1 gave a Kd of 73 nM, a koff of 0.0014 s⁻¹ and a kon of 39000 M⁻¹ s⁻¹.

In turn, B2 returned a Kd of 18 nM, a koff of 0.002 s⁻¹ and a kon of 130000 M⁻¹ s⁻¹.

In turn, B3 showed a Kd of 53 nM, a koff of 0.00069 s⁻¹ and a kon of 16000 M⁻¹ s⁻¹.

Molecule B4 registered a Kd of 3 nM, a koff of 0.00038 s⁻¹ and a kon of 410000 M⁻¹ s⁻¹.

In another data set the target is B6. The data set is described as follows: SEC-MALS.
For the molecule B1, the “stoichiometry N” value was 1 antitoxin per toxin (2:2).

Take B2: the “stoichiometry N” value was 1 antitoxin per toxin (2:2) and 1 antitoxin per toxin (4:4).

As to B3, the “stoichiometry N” value is 1 antitoxin per toxin (2:2).

Another data set deals with the molecule itself. Description: SEC-MALS.
With B1, the “stoichiometry N” value turned out to be 2.

For B5, the “stoichiometry N” value is 2.

Regarding B2, the “stoichiometry N” value was 2.

For the molecule B3, the “stoichiometry N” value was 2.

Regarding B4, the “stoichiometry N” value stood at 2.

For the molecule B6, the “stoichiometry N” value stood at 2.

One may read the Kd as a measure of binding affinity in units of concentration. The term koff denotes a measure of how fast the partners let go of each other. Low readings indicate slow dissociation, high ones fast dissociation. Broadly, the kon is the second-order rate constant of association. High values mean fast association, low ones slow association. For orientation: stoichiometry N means a count of units in the complex or per binding partner.
